Measured values from several laboratories, pooled; numbers as filed in NIAID ChemDB.

Shared fields: growth or infection tests; species: HIV-1; read-out: EC50

Blank or dashed fields: not listed here. ECn is the concentration giving n% inhibition of infection, replication or growth. Conditions beyond the fields shown may differ between rows.

SMILES,read by,changes,strain,cells,result
Nc1nc(NC2CC2)c2ncn([C@H]3C=C[C@@H](CO)C3)c2n1,p24,,KAB Clinical isolate,PBMC,>0.25 µM
O=C(C(=O)N1CCN(C(=NCCOCCO)c2ccccc2)CC1)c1c[nH]c2cccc(F)c12,luciferase,,Luciferase reporter virus,HeLa(CD4+) + HeLa,>0.5 µM
CC(=O)Nc1sccc1S(=O)(=O)c1ccc(Cl)cc1,cytopathic effect / MTT,,IIIB,CEM + CEM/O,>40 µg/mL
Nc1ncnc2c1ncn2C/C=C/CN1C(=O)c2ccccc2C1=O,syncytia,,,CEM,>4 µM
CC(=O)O[C@@]12[C@H](OC(=O)/C=C/c3ccc(Br)cc3)[C@@H](C)[C@@]3(O)[C@@H](C=C(CO)C[C@]4(O)C(=O)C(C)=C[C@@H]34)[C@@H]1C2(C)C,p24 / ELISA,,IIIB,C8166,0.0188 µM
O=C1c2ccccc2C(=O)N1CC1OC1CBr,syncytia,,,CEM,>20 µM
COc1ccc(NC(=O)c2ccccc2SSc2ccccc2C(=O)Nc2ccc(OC)cc2)cc1,cytopathic effect / XTT,,,CEM,5 µM
N#CN=C(c1ccccc1)N1CCN(C(=O)C(=O)c2c[nH]c3c(Br)ccc(F)c23)CC1,luciferase,,Luciferase reporter virus,HeLa(CD4+) + HeLa,<0.5 µM
Cc1ccc(C)c(CS(=O)(=O)c2cccc[n+]2[O-])c1,cytopathic effect,RT-Y181C,,CEM,20 µg/mL
CC(=O)O[C@@]12[C@H](OC(=O)CCCCCBr)[C@@H](C)[C@@]3(O)[C@@H](C=C(CO)C[C@]4(O)C(=O)C(C)=C[C@@H]34)[C@@H]1C2(C)C,p24 / ELISA,,IIIB,C8166,>200 µM
CCCc1cc(=O)oc2c3c(c4c(c12)OC(C)(C)CC4)O[C@@H](C)[C@H](C)[C@@H]3O,XTT,RT-P236L,HEPT-resistant (RT P236L),CEM + CEM-SS,0.2 µM
O=C(Cn1ccc(=O)[nH]c1=O)Nc1ccccn1,luciferase,,IIIB,TZM-bl,243 µM
Fc1ccc(NC(=S)NCc2ccco2)cc1Cl,MTT,,IIIB,MT-4,>35.8 µM
CC(=O)Nc1nc2c(ncn2C/C=C\CN2C(=O)c3ccccc3C2=O)c(=O)[nH]1,syncytia,,,CEM,>100 µM
CS(=O)c1ccc(-c2nc(-c3ccc(F)cc3)c(-c3ccncc3)[nH]2)cc1,p24,,89.6,Jurkat cells,<1 µM
Cc1ccc(C)c(C(Cl)S(=O)(=O)c2cc(C)cc[n+]2[O-])c1,cytopathic effect,,IIIB,CEM,0.48 µg/mL
COc1cnc(-c2cnccn2)c2[nH]cc(C(=O)C(=O)N3CCN(C(=N)c4ccccc4)C[C@H]3C)c12,luciferase,,Luciferase reporter virus,HeLa(CD4+) + HeLa,<0.5 µM
Nc1sccc1S(=O)(=O)c1ccc(Cl)cc1,cytopathic effect / MTT,,IIIB,CEM + CEM/O,>20 µg/mL
S=C(Nc1ccccc1Cl)NC1CCN(Cc2ccccc2)CC1,MTT,,IIIB,MT-4,>56 µM
CO[C@H]1C[C@@H]2CC[C@@H](C)[C@@](O)(O2)C(=O)C(=O)N2CCCC[C@H]2C(=O)O[C@H]([C@H](C)C[C@@H]2CC[C@@H](O)[C@H](OC)C2)CC(=O)[C@H](C)/C=C(\C)[C@@H](O)[C@@H](OC)C(=O)[C@H](C)C[C@H](C)/C=C/C=C/C=C/1C,p24,,CC101.19 R5 AD101-resistant,PBMC,<0.0005 µM
O=C(Nc1sccc1S(=O)(=O)c1ccc(Cl)cc1)C(F)(F)C(F)(F)C(F)(F)F,cytopathic effect / MTT,,IIIB,CEM + CEM/O,>8 µg/mL
Cc1ccc(C)c(C(C)S(=O)(=O)c2c(C)ccc[n+]2[O-])c1,cytopathic effect,,RF,CEM,0.3 µg/mL
NS(=O)(=O)c1ccc(NC(=O)c2ccc(SSc3ccc(C(=O)Nc4ccc(S(N)(=O)=O)cc4)cc3)cc2)cc1,cytopathic effect / XTT,,,CEM,>100 µM
C[C@H]1CN(C(=NC#N)c2ccccc2)CCN1C(=O)C(=O)c1c[nH]c2c(Br)ccc(F)c12,luciferase,,Luciferase reporter virus,HeLa(CD4+) + HeLa,<0.5 µM
Cc1cc(C)c(CS(=O)c2cccc[n+]2[O-])c(C)c1,cytopathic effect,,MN,CEM,7.6 µg/mL
O=C1c2ccccc2C(=O)N1C/C=C/Cn1cnc2c(Cl)ncnc21,syncytia,,,CEM,>100 µM
CC/C=C\C/C=C\C/C=C\C/C=C\C/C=C\CCCC(=O)O[C@@H]1[C@@H](C)[C@@]2(O)[C@@H](C=C(COC(C)=O)C[C@]3(O)C(=O)C(C)=C[C@@H]23)[C@@H]2C(C)(C)[C@]12OC(C)=O,p24 / ELISA,,IIIB,C8166,0.0705 µM
O=C(Nc1sccc1S(=O)(=O)c1ccccc1)c1ccccc1,cytopathic effect / MTT,,IIIB,CEM + CEM/O,>40 µg/mL
C/C=C/C(=O)O[C@@]12[C@H](O)[C@@H](C)[C@@]3(O)[C@@H](C=C(CO)C[C@]4(O)C(=O)C(C)=C[C@@H]34)[C@@H]1C2(C)C,p24 / ELISA,,IIIB,C8166,21.99 µM
Fc1cccc(NC(=S)NC2CCN(Cc3ccccc3)CC2)c1,MTT,,IIIB,MT-4,>32 µM
CCOC(=O)CNC(=O)c1ccccc1SSc1ccccc1C(=O)NCC(=O)OCC,cytopathic effect / XTT,,,CEM,15 µM
N#CN=C(c1ccccn1)N1CCN(C(=O)C(=O)c2c[nH]c3c(-n4ccnn4)ncc(F)c23)CC1,luciferase,,Luciferase reporter virus,HeLa(CD4+) + HeLa,<0.5 µM
[O-][n+]1onc2ncnc(N3CC[N+]4(CC3)CC[N+]3(CCN(c5ncnc6no[n+]([O-])c56)CC3)CC4)c21,cytopathic effect / XTT,,IIIB,MT-4,5.7 µM
Cc1ccc(NC(=S)NCc2ccco2)cc1Cl,MTT,,IIIB,MT-4,>100 µM
CC(=O)OCC1=C[C@H]2[C@@H]3C(C)(C)[C@]3(OC(C)=O)[C@H](OC(=O)CCCCn3ccc(=O)n(CCCCC(=O)O[C@@H]4[C@@H](C)[C@@]5(O)[C@@H](C=C(COC(C)=O)C[C@]6(O)C(=O)C(C)=C[C@@H]56)[C@@H]5C(C)(C)[C@]45OC(C)=O)c3=O)[C@@H](C)[C@]2(O)[C@@H]2C=C(C)C(=O)[C@@]2(O)C1,p24 / ELISA,,IIIB,C8166,>200 µM
COc1cnc(-n2ccnn2)c2[nH]cc(C(=O)C(=O)N3CCN(C(=NC#N)c4ccccc4)CC3)c12,luciferase,,Luciferase reporter virus,HeLa(CD4+) + HeLa,<0.5 µM
O=C(CCC(=O)n1cnc2c([N+](=O)[O-])cccc21)n1cnc2c([N+](=O)[O-])cccc21,luciferase,,IIIB,TZM-bl,17.1 µM
CS(=O)(=O)/N=C(\c1ccccc1)N1CCN(C(=O)C(=O)c2c[nH]c3c(-n4ccnn4)ncc(F)c23)CC1,luciferase,,Luciferase reporter virus,HeLa(CD4+) + HeLa,<0.5 µM
CC(C)(C)c1ccc(NC(=O)c2ccccc2SSc2ccccc2C(=O)Nc2ccc(C(C)(C)C)cc2)cc1,cytopathic effect / XTT,,,CEM,10 µM
S=C(NCc1ccco1)Nc1ccc(I)cc1,MTT,,IIIB,MT-4,>36.5 µM
O=C(CCC(=O)n1cnc2ccccc21)n1cnc2ccccc21,luciferase,,VB59,TZM-bl,25.15 µM
O=C(C(=O)N1CCN(C(=Nc2ccccc2)c2ccccc2)CC1)c1c[nH]c2cccc(F)c12,luciferase,,Luciferase reporter virus,HeLa(CD4+) + HeLa,<0.5 µM
O=C(CCC(=O)Nc1ccc([N+](=O)[O-])cn1)Nc1ccc([N+](=O)[O-])cn1,luciferase,,VB59,TZM-bl,191.6 µM
Cc1ccc(Cl)cc1NC(=S)NC1CCN(Cc2ccccc2)CC1,MTT,,IIIB,MT-4,>37 µM
CCC(=O)c1ccc(F)c([C@@H]2C[C@@H]2NC(=O)Nc2ccc(C#N)cn2)c1O,β-galactosidase / luminescence,NNRTI-resistant (RT V179F),LAI,TZM-bl,0.00003 µM
S=C(NCc1ccco1)Nc1ccccc1Br,MTT,,IIIB,MT-4,>100 µM
O=C(NNc1ccccc1)c1ccccc1SSc1ccccc1C(=O)NNc1ccccc1,cytopathic effect / XTT,,,CEM,>5.2 µM
Nc1nc(NC2CC2)c2ncn([C@H]3C=C[C@@H](CO)C3)c2n1,p24,,HXB2,C8166,0.9 µM

For reference, 6 entries again:

SMILES,read by,changes,strain,cells,result
CCOC(=O)CNC(=O)c1ccccc1SSc1ccccc1C(=O)NCC(=O)OCC,cytopathic effect / XTT,,,CEM,15 µM
NS(=O)(=O)c1ccc(NC(=O)c2ccc(SSc3ccc(C(=O)Nc4ccc(S(N)(=O)=O)cc4)cc3)cc2)cc1,cytopathic effect / XTT,,,CEM,>100 µM
CC/C=C\C/C=C\C/C=C\C/C=C\C/C=C\CCCC(=O)O[C@@H]1[C@@H](C)[C@@]2(O)[C@@H](C=C(COC(C)=O)C[C@]3(O)C(=O)C(C)=C[C@@H]23)[C@@H]2C(C)(C)[C@]12OC(C)=O,p24 / ELISA,,IIIB,C8166,0.0705 µM
Nc1ncnc2c1ncn2C/C=C/CN1C(=O)c2ccccc2C1=O,syncytia,,,CEM,>4 µM
Cc1ccc(Cl)cc1NC(=S)NC1CCN(Cc2ccccc2)CC1,MTT,,IIIB,MT-4,>37 µM
O=C1c2ccccc2C(=O)N1C/C=C/Cn1cnc2c(Cl)ncnc21,syncytia,,,CEM,>100 µM